Share of PSTVd loop 6 variants by leaf site

The pool varies loop 6 of the PSTVd intermediate strain in the pattern UNNNCGNNNG; wild type is UGACCGCGAG (upper and lower strand joined, each 5' to 3', the first 5 letters being the upper strand, closing pairs included).

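Three N. benthamiana plants were inoculated with the whole mutant pool. Samples came from the inoculated region at 5 days, the leaf margin at 10 and upper systemic leaves at 12.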

Values are reads per thousand in the sample; higher means more abundant, 0 means not found.
Each site shows the three plants.
"Pool" is the share in the plasmid pool used as inoculum, on the same scale.
The inoculated region was read from the minus strand, the other sites from the plus strand.
IR is the inoculated region, LM the leaf margin, Sys the systemic leaves.
Wild type was 20.7 per thousand in the pool and the most common sequence in every sample (inoculated region 195, 198, 203; leaf margin 629, 591, 734; systemic leaves 942, 870, 868).
The authors trace changes outside the varied positions to PCR and sequencing errors or to mutation in the plant; presence does not show that a variant is infectious alone.
Samples held 36,220 to 57,551 reads, so the smallest values rest on one or two reads.

sequence,pool,IR,LM,Sys
UCUACGACCG,0.261,0.0869 / 0.0359 / 0.0369,0.0276 / 0 / 0.0232,0 / 0 / 0
UCUACGACGG,0.288,0.0869 / 0.0719 / 0.0738,0.0552 / 0 / 0,0 / 0 / 0
UCUACGACUG,0.366,0.122 / 0.108 / 0.0553,0 / 0 / 0,0 / 0 / 0
UCUACGAGAG,0.275,0.191 / 0.0898 / 0.129,0.166 / 0 / 0,0 / 0 / 0.0205
UCUACGAGCG,0.209,0.122 / 0.0180 / 0.0738,0.0828 / 0 / 0.0232,0 / 0 / 0
UCUACGAGGG,0.235,0.191 / 0.0180 / 0.0922,0.0276 / 0 / 0,0 / 0 / 0
UCUACGAGUG,0.196,0.0521 / 0.108 / 0.111,0.0552 / 0 / 0,0 / 0 / 0
UCUACGAUAG,0.222,0.122 / 0.0539 / 0.111,0.0276 / 0 / 0.139,0 / 0 / 0
UCUACGAUCG,0.340,0.0869 / 0.126 / 0.0553,0 / 0 / 0,0 / 0 / 0
UCUACGAUGG,0.340,0.0348 / 0.0719 / 0.129,0.0276 / 0 / 0,0 / 0 / 0
UCUACGAUUG,0.340,0.191 / 0.0719 / 0.129,0 / 0 / 0.0232,0 / 0 / 0
UCUACGCAAG,0.131,0.0869 / 0.198 / 0.111,0.359 / 0 / 0,0 / 0 / 0
UCUACGCACG,0.170,0.0695 / 0.0898 / 0.0738,0.0828 / 0 / 0.0232,0 / 0 / 0
UCUACGCAGG,0.0915,0.139 / 0.144 / 0.0738,0.0276 / 0 / 0,0 / 0 / 0
UCUACGCAUG,0.144,0.0869 / 0.0359 / 0.129,0.110 / 0 / 0.0232,0 / 0 / 0
UCUACGCCAG,0.144,0.104 / 0.0719 / 0.0922,0.0276 / 0 / 0,0 / 0 / 0
UCUACGCCCG,0.261,0.0521 / 0.144 / 0.0738,0 / 0 / 0,0 / 0 / 0
UCUACGCCGG,0.183,0.209 / 0.0898 / 0.129,0.0276 / 0 / 0.0232,0 / 0 / 0
UCUACGCCUG,0.261,0.0869 / 0.0359 / 0.0369,0.0276 / 0 / 0,0 / 0 / 0
UCUACGCGAG,0.157,0.174 / 0.108 / 0.111,8.37 / 0.151 / 0,0.0180 / 0.0404 / 0.103
UCUACGCGCG,0.248,0.122 / 0.0898 / 0.166,0.0276 / 0 / 0,0 / 0 / 0
UCUACGCGGA,0.0131,0 / 0 / 0,0 / 0 / 0,0 / 0 / 0
UCUACGCGGG,0.222,0.122 / 0.0539 / 0.0184,0.0276 / 0 / 0.0232,0 / 0 / 0
UCUACGCGUG,0.157,0.0521 / 0.0539 / 0.0922,0.0828 / 0 / 0.0928,0 / 0 / 0
UCUACGCUAG,0.0784,0.0695 / 0.0898 / 0.0553,0.0276 / 0 / 0,0 / 0 / 0
UCUACGCUCG,0.340,0.139 / 0.0359 / 0.0738,0.0276 / 0 / 0,0 / 0 / 0
UCUACGCUGG,0.118,0.139 / 0.0539 / 0.0922,0 / 0 / 0.0232,0 / 0 / 0
UCUACGCUUG,0.196,0.122 / 0.0898 / 0.0553,0.0552 / 0 / 0.0232,0 / 0 / 0
UCUACGGAAG,0.118,0.0695 / 0.0719 / 0.166,0.0276 / 0 / 0.0232,0 / 0.0404 / 0
UCUACGGACG,0.209,0.626 / 0.647 / 0.682,0.0552 / 0.0252 / 0.116,0 / 0 / 0
UCUACGGAGA,0.0131,0 / 0 / 0,0 / 0 / 0,0 / 0 / 0
UCUACGGAGG,0.196,0.0521 / 0.144 / 0.111,0.0828 / 0 / 0.0232,0 / 0 / 0
UCUACGGAGU,0.0131,0 / 0 / 0,0 / 0 / 0,0 / 0 / 0
UCUACGGAUG,0.275,0.278 / 0.0180 / 0.111,0.442 / 0.252 / 0.116,0 / 0 / 0
UCUACGGCAG,0.183,0.0695 / 0.0180 / 0.0553,0 / 0 / 0,0 / 0 / 0
UCUACGGCCG,0.209,0.156 / 0.0719 / 0.0369,0.0552 / 0 / 0.0232,0 / 0 / 0
UCUACGGCGG,0.196,0.139 / 0.0719 / 0.166,0.0552 / 0 / 0,0 / 0 / 0
UCUACGGCUG,0.275,0.0869 / 0.0719 / 0.0184,0 / 0 / 0.0232,0 / 0 / 0
UCUACGGGAG,0.314,0.660 / 0.844 / 0.627,0.110 / 0.0757 / 0.0464,0 / 0 / 0
UCUACGGGCG,0.288,0.695 / 0.988 / 0.369,0.193 / 0.0504 / 0.162,0 / 0 / 0
UCUACGGGGG,0.144,0.0695 / 0.0359 / 0.0738,0 / 0 / 0,0 / 0 / 0
UCUACGGGUG,0.170,0.0869 / 0.0180 / 0.0369,0.138 / 0 / 0,0 / 0 / 0
UCUACGGUAG,0.222,0.0695 / 0.0539 / 0.0553,0.166 / 0 / 0,0 / 0 / 0
UCUACGGUCG,0.340,0.122 / 0.0898 / 0.0738,0 / 0 / 0.0232,0 / 0 / 0
UCUACGGUGG,0.392,0.104 / 0.0719 / 0.0922,0.0276 / 0 / 0.0232,0 / 0 / 0
UCUACGGUUG,0.235,0.139 / 0.0898 / 0.0922,0 / 0 / 0.0232,0 / 0 / 0
UCUACGUAAG,0.157,0.0869 / 0.108 / 0.0369,0.0276 / 0 / 0,0 / 0 / 0

2 of these entries, quoted again:

| sequence | pool | IR | LM | Sys |
|---|---|---|---|---|
| UCUACGGUAG | 0.222 | 0.0695 / 0.0539 / 0.0553 | 0.166 / 0 / 0 | 0 / 0 / 0 |
| UCUACGAGAG | 0.275 | 0.191 / 0.0898 / 0.129 | 0.166 / 0 / 0 | 0 / 0 / 0.0205 |

Data from the supplement of Wu et al. 2024, doi:10.1371/journal.ppat.1012142.